Pooled drug test results. Numbers come from NIAID ChemDB, via PubChem.

Common to all: tests in culture; agent: Streptococcus pneumoniae; read-out: MIC

Lines come from different laboratories, so protocols vary.

| SMILES | strain or isolate | result |
|---|---|---|
| O=C(O)c1cn(C2CC2)c2cc(N3CCNCC3)ccc2c1=O | R6 | 32 µg/mL |
| CC[C@H]1OC(=O)[C@@](C)(F)C(=O)[C@H](C)[C@@H](O[C@@H]2O[C@H](C)C[C@H](N(C)C)[C@H]2O)[C@@]2(C)C[C@@H](C)C(=N)[C@H](C)[C@@H](OC/C(=N\OCc3ccc(-c4nccs4)nc3)CO2)[C@]1(C)O | 7701 (erythromycin A-resistant) | 0.25 µg/mL |
| COc1c(N2C[C@@H]3CCCN[C@@H]3C2)ccc2c(=O)c(C(=O)O)cn(C3CC3)c12 | D-1687 | 8 µg/mL |
| CC[C@H]1OC(=O)[C@H](C)C(=O)[C@H](C)[C@@H](O[C@@H]2O[C@H](C)C[C@H](N(C)C)[C@H]2O)[C@@]2(C)C[C@@H](C)C(=NC(C)=O)[C@H](C)[C@@H](OC/C(=N\OCc3ccc4nc(N)sc4c3)CO2)[C@]1(C)O | 700906 (erythromycin-resistant-ERM) | <0.06 µg/mL |
| CC[C@H]1OC(=O)[C@@](C)(F)C(=O)[C@H](C)[C@@H](O[C@@H]2O[C@H](C)C[C@H](N(C)C)[C@H]2O)[C@@]2(C)C[C@@H](C)C(=NC(C)=O)[C@H](C)[C@@H](OC/C(=N\OCc3ccc(-c4nccs4)nc3)CO2)[C@]1(C)O | 49619 (erythromycin A-susceptible) | <0.06 µg/mL |
| CC[C@H]1OC(=O)[C@H](C)C(=O)[C@H](C)[C@@H](O[C@@H]2O[C@H](C)C[C@H](N(C)C)[C@H]2O)[C@@]2(C)C[C@@H](C)C(=NC(=O)CO)[C@H](C)C(OC/C(=C\C=C\c3ccccc3)CO2)[C@]1(C)O | 7701 (erythromycin-resistant-MEF) | 0.5 µg/mL |
| CC[C@H]1OC(=O)[C@H](C)C(=O)[C@H](C)[C@@H](O[C@@H]2O[C@H](C)C[C@H](N(C)C)[C@H]2O)[C@@]2(C)C[C@@H](C)C(=NC(C)=O)[C@H](C)[C@@H](OC/C(=N\Oc3ccc(-n4cccn4)nc3)CO2)[C@]1(C)O | 49619 (erythromycin-susceptible) | <0.06 µg/mL |
| CC[C@H]1OC(=O)[C@H](C)[C@@H](O[C@H]2C[C@@](C)(OC)[C@@H](O)[C@H](C)O2)[C@H](C)[C@@H](O[C@H]2O[C@@H](C)C[C@@H](N(C)C)[C@@H]2O)[C@](C)(O)C[C@@H](C)C(=O)[C@H](C)[C@@H](O)[C@]1(C)O | 700906 (erythromycin A-resistant) | >64 µg/mL |
| CC[C@H]1OC(=O)[C@H](C)C(=O)[C@H](C)[C@@H](O[C@@H]2O[C@H](C)C[C@H](N(C)C)[C@H]2O)[C@@]2(C)C[C@@H](C)C(=NC(C)=O)[C@H](C)C(OC/C(=C\C=C\c3cccnc3)CO2)[C@]1(C)O | 7701 (erythromycin-resistant-MEF) | 0.25 µg/mL |
| C[C@H]1NCc2cc(-c3c(F)cc4c(=O)c(C(=O)O)cn(C5CC5)c4c3OC(F)F)ccc21 | R6-C11 | 0.03 µg/mL |
| CC[C@H]1OC(=O)[C@H](C)C(=O)[C@H](C)[C@@H](O[C@@H]2O[C@H](C)C[C@H](N(C)C)[C@H]2O)[C@@]2(C)C[C@@H](C)C(=NC(C)=O)[C@H](C)C(OC/C(=N/OCc3ccccc3)CO2)[C@]1(C)O | 700906 (erythromycin-resistant-ERM) | 32 µg/mL |
| CC[C@H]1OC(=O)[C@@](C)(F)C(=O)[C@H](C)[C@@H](O[C@@H]2O[C@H](C)C[C@H](N(C)C)[C@H]2O)[C@@]2(C)C[C@@H](C)C(=NC(C)=O)[C@H](C)[C@@H](OC/C(=N\OCc3ccc(C(N)=O)cc3)CO2)[C@]1(C)O | 7701 (erythromycin A-resistant) | 0.25 µg/mL |
| CC[C@H]1OC(=O)[C@H](C)C(=O)[C@H](C)[C@@H](O[C@@H]2O[C@H](C)C[C@H](N(C)C)[C@H]2O)[C@@]2(C)C[C@@H](C)C(=NC(C)=O)[C@H](C)C(OC/C(=N\OCc3ccccc3)CO2)[C@]1(C)O | 700906 (erythromycin-resistant-ERM) | 0.13 µg/mL |
| CC[C@H]1OC(=O)[C@H](C)C(=O)[C@H](C)[C@@H](O[C@@H]2O[C@H](C)C[C@H](N(C)C)[C@H]2O)[C@@]2(C)C[C@@H](C)C(=NC(C)=O)[C@H](C)C(OC/C(=C\C#Cc3ccc(N)cc3)CO2)[C@]1(C)O | 49619 (erythromycin-susceptible) | <0.06 µg/mL |
| C=C1COC2[C@@H](C)C(=NC(C)=O)[C@H](C)C[C@@](C)(OC1)[C@H](O[C@@H]1O[C@H](C)C[C@H](N(C)C)[C@H]1O)[C@@H](C)C(=O)[C@@H](C)C(=O)O[C@H](CC)[C@@]2(C)O | 7701 (erythromycin-resistant-MEF) | 0.5 µg/mL |
| CC[C@H]1OC(=O)[C@@](C)(F)C(=O)[C@H](C)[C@@H](O[C@@H]2O[C@H](C)C[C@H](N(C)C)[C@H]2O)[C@@]2(C)C[C@@H](C)C(=NC(C)=O)[C@H](C)[C@@H](OC/C(=N\OCC#Cc3cccc(N)n3)CO2)[C@]1(C)O | 49619 (erythromycin A-susceptible) | <0.06 µg/mL |
| CC[C@H]1OC(=O)[C@H](C)C(=O)[C@H](C)[C@@H](O[C@@H]2O[C@H](C)C[C@H](N(C)C)[C@H]2O)[C@@]2(C)C[C@@H](C)C(=NC(=O)CN)[C@H](C)C(OC/C(=C\C=C\c3ccccc3)CO2)[C@]1(C)O | 7701 (erythromycin-resistant-MEF) | 0.5 µg/mL |
| CC[C@H]1OC(=O)[C@@](C)(F)C(=O)[C@H](C)[C@@H](O[C@@H]2O[C@H](C)C[C@H](N(C)C)[C@H]2O)[C@@]2(C)C[C@@H](C)C(=NC(C)=O)[C@H](C)[C@@H](OC/C(=N\OCc3ccc(C(N)=O)s3)CO2)[C@]1(C)O | 7701 (erythromycin A-resistant) | 0.25 µg/mL |
| CC[C@H]1OC(=O)[C@H](C)C(=O)[C@H](C)[C@@H](O[C@@H]2O[C@H](C)C[C@H](N(C)C)[C@H]2O)[C@@]2(C)C[C@@H](C)C(=NC(C)=O)[C@H](C)C(OC/C(=C\C=C\c3ccc([N+](=O)[O-])cc3)CO2)[C@]1(C)O | 700906 (erythromycin-resistant-ERM) | 1 µg/mL |
| CC[C@H]1OC(=O)[C@H](C)C(=O)[C@H](C)[C@@H](O[C@@H]2O[C@H](C)C[C@H](N(C)C)[C@H]2O)[C@@]2(C)C[C@@H](C)C(=NC(C)=O)[C@H](C)[C@@H](OC/C(=N\OCC#Cc3ncccn3)CO2)[C@]1(C)O | 49619 (erythromycin-susceptible) | <0.06 µg/mL |
| CC[C@H]1OC(=O)[C@@](C)(F)C(=O)[C@H](C)[C@@H](O[C@@H]2O[C@H](C)C[C@H](N(C)C)[C@H]2O)[C@@]2(C)C[C@@H](C)C(=NC(C)=O)[C@H](C)[C@@H](OC/C(=N\OCc3ccc4cnn(C(N)=O)c4c3)CO2)[C@]1(C)O | 7701 (erythromycin A-resistant) | 0.13 µg/mL |
| CN1CCN(c2ccc3c(=O)c(C(=O)O)cn(C4CC4)c3c2)CC1 | D-1687 | 128 µg/mL |
| CCC(=O)N=C1[C@H](C)C[C@@]2(C)OC/C(=C/C=C/c3ccccc3)COC([C@H]1C)[C@](C)(O)[C@@H](CC)OC(=O)[C@H](C)C(=O)[C@H](C)[C@H]2O[C@@H]1O[C@H](C)C[C@H](N(C)C)[C@H]1O | 7701 (erythromycin-resistant-MEF) | 1 µg/mL |
| CC[C@H]1OC(=O)[C@H](C)C(=O)[C@H](C)[C@@H](O[C@@H]2O[C@H](C)C[C@H](N(C)C)[C@H]2O)[C@@]2(C)C[C@@H](C)C(=NC(C)=O)[C@H](C)[C@@H](OC/C(=N\OCC#Cc3cncnc3)CO2)[C@]1(C)O | 7701 (erythromycin-resistant-MEF) | 1 µg/mL |
| CC[C@H]1OC(=O)[C@H](C)C(=O)[C@H](C)[C@@H](O[C@@H]2O[C@H](C)C[C@H](N(C)C)[C@H]2O)[C@@]2(C)C[C@@H](C)C(=NC(C)=O)[C@H](C)C(OC/C(=C\C=C\c3ccccc3)CO2)[C@]1(C)O | 700906 (erythromycin-resistant-ERM) | 1 µg/mL |
| NC1CCN(c2c(F)cc3c(=O)c(C(=O)O)cn(C4CC4)c3c2Cl)C1 | R6-G8 | 0.12 µg/mL |
| CC[C@H]1OC(=O)[C@@](C)(F)C(=O)[C@H](C)[C@@H](O[C@@H]2O[C@H](C)C[C@H](N(C)C)[C@H]2O)[C@@]2(C)C[C@@H](C)C(=NC(C)=O)[C@H](C)[C@@H](OC/C(=N\OCc3ccc4nc(N)sc4c3)CO2)[C@]1(C)O | 700906 (erythromycin A-resistant) | 0.13 µg/mL |
| CC[C@H]1OC(=O)[C@H](C)C(=O)[C@H](C)[C@@H](O[C@@H]2O[C@H](C)C[C@H](N(C)C)[C@H]2O)[C@@]2(C)C[C@@H](C)C(=NC(C)=O)[C@H](C)C(OC/C(=N\OCC#Cc3cccc(N)n3)CO2)[C@]1(C)O | 49619 (erythromycin-susceptible) | <0.06 µg/mL |

A second listing of 4 rows from above:

SMILES	strain or isolate	result
CC[C@H]1OC(=O)[C@H](C)C(=O)[C@H](C)[C@@H](O[C@@H]2O[C@H](C)C[C@H](N(C)C)[C@H]2O)[C@@]2(C)C[C@@H](C)C(=NC(C)=O)[C@H](C)C(OC/C(=C\C#Cc3ccc(N)cc3)CO2)[C@]1(C)O	49619 (erythromycin-susceptible)	<0.06 µg/mL
CC[C@H]1OC(=O)[C@H](C)C(=O)[C@H](C)[C@@H](O[C@@H]2O[C@H](C)C[C@H](N(C)C)[C@H]2O)[C@@]2(C)C[C@@H](C)C(=NC(C)=O)[C@H](C)C(OC/C(=N\OCC#Cc3cccc(N)n3)CO2)[C@]1(C)O	49619 (erythromycin-susceptible)	<0.06 µg/mL
CC[C@H]1OC(=O)[C@@](C)(F)C(=O)[C@H](C)[C@@H](O[C@@H]2O[C@H](C)C[C@H](N(C)C)[C@H]2O)[C@@]2(C)C[C@@H](C)C(=NC(C)=O)[C@H](C)[C@@H](OC/C(=N\OCc3ccc(C(N)=O)s3)CO2)[C@]1(C)O	7701 (erythromycin A-resistant)	0.25 µg/mL
CC[C@H]1OC(=O)[C@@](C)(F)C(=O)[C@H](C)[C@@H](O[C@@H]2O[C@H](C)C[C@H](N(C)C)[C@H]2O)[C@@]2(C)C[C@@H](C)C(=NC(C)=O)[C@H](C)[C@@H](OC/C(=N\OCC#Cc3cccc(N)n3)CO2)[C@]1(C)O	49619 (erythromycin A-susceptible)	<0.06 µg/mL